Test results from patent US20080003190A1, “Antibacterial botanicals” (priority 2006, published 2008).

Assay: Polyphenol test: Ferric Chloride reaction
Set-up: key: (0), denotes no reaction; positive signs (+, ++, +++) denote increasing strength of Ferric Chloride reaction as measured by a colorimetric score; positive signs (+, ++, +++) denote increasing strength of Ferric Chloride reaction as measured by a colorimetric score; positive signs (+, ++, +++) denote increasing strength of Ferric Chloride reaction as measured by a colorimetric score
Details: 50 uL extract + 50 uL 10% aqueous ferric chloride, 96-well dish; extract strength and solvent as in label

Row | SMILES | Ferric Chloride reaction, colorimetric score
1 | O=C(O)/C=C/c1ccc(O)c(O)c1 [Caffeic acid (1%) in 70% ethanol, Caffeic acid] | Caffeic acid (1%) in 70% ethanol ((+++)
2 | O=C(O)c1cc(O)c(O)c(O)c1 [Gallic acid (1%) in 70% ethanol, Gallic acid] | Gallic acid (1%) in 70% ethanol (+++)
